Only a part is listed here, and it is no random draw. The source made the active and inactive calls. No stated cut-off is given here; in the data, active means inhibition above about 11%; inactive means the rest.
assay: growth loss of phage-infected E. coli, primary screen, RecBCD inhibitor project, absorbance, with phage, HTS (AID 651602); details: at 11.9 µM, hits give high values

Compound	inhibition
O=C(NCC1(N2CCCCC2)CCCCC1)c1cccc([N+](=O)[O-])c1	inactive: 3.04%
CSc1ccc(C(=O)NCC2(N3CCOCC3)CCCCC2)cc1	inactive: 2.56%
CN1CCC(Nc2cccc(F)c2)CC1	inactive: 3.04%
O=C(NCC1(N2CCCCC2)CCCCC1)c1cncc(Br)c1	inactive: 0.54%
COc1ccc(C(c2nnnn2C2CCCC2)N2CCC(n3c(=O)[nH]c4ccccc43)CC2)cc1 (stereo not drawn)	inactive: -0.86%
Cc1ccc(C(=O)NCC2(N(C)C)CCCCC2)o1	inactive: 0.47%
CCCOc1ccc(C(=O)NCC2(N(C)C)CCCCC2)cc1OC	inactive: -0.72%
CC(C)c1ccc(NC2CCN(C(=O)OC(C)(C)C)CC2)cc1	inactive: 2.3%
COc1ccc(CN(CCCl)CCCl)cc1Cl	inactive: 2.59%
CN(C)c1cccc(C(=O)NCC2(N3CCCCC3)CCCCC2)c1	inactive: 0.85%
COc1cc(OC)c(C(=O)NCC2(N(C)C)CCCCC2)cc1OC	inactive: -1.27%
CCC(c1nnnn1C(C)(C)C)N1CCC(n2c(=O)[nH]c3ccccc32)CC1 (stereo not drawn)	inactive: 3.67%
O=C(NCC1(N2CCOCC2)CCCCC1)c1cc(F)c(F)cc1Cl	inactive: 5.95%
CCCCn1nnnc1C(c1ccnc2ccccc12)N1CCC(n2c(=O)[nH]c3ccccc32)CC1 (stereo not drawn)	inactive: 0.08%
O=C(NCC1(N2CCCCC2)CCCCC1)c1ccc(Cl)nc1	inactive: -0.38%
O=c1[nH]c2ccccc2n1C1CCN(C(c2ccccc2OC(F)(F)F)c2nnnn2C2CCCCC2)CC1 (stereo not drawn)	inactive: 0.16%
Cc1cc(C)cc(N(C(=O)c2ccccc2)C2CCN(C(=O)OC(C)(C)C)CC2)c1	inactive: 1.59%
O=C(NCC1(N2CCOCC2)CCCCC1)c1cc2ccccc2o1	inactive: 3.2%
O=C(NCC1(N2CCCCC2)CCCCC1)c1ccc(Cl)s1	inactive: 4.69%
N#CC1(Nc2ccccc2)CCN(Cc2ccccc2)CC1	inactive: 2.23%
O=c1[nH]c2ccccc2n1C1CCN(C(c2cc3ccccc3o2)c2nnnn2C2CCCCC2)CC1 (stereo not drawn)	inactive: -0.62%
O=C(OC1CN2CCC1CC2)C1c2ccccc2Oc2ccccc21 (stereo not drawn)	inactive: 1.95%
COc1ccc(Cl)cc1C(=O)NCC1(N2CCOCC2)CCCCC1	inactive: -1.08%
CCOC(=O)N1CCC(Nc2ccc(OC)cc2)CC1	inactive: 2.47%

Compound	inhibition
CCCCn1nnnc1C(c1ccc(OC)cc1)N1CCC(n2c(=O)[nH]c3ccccc32)CC1 (stereo not drawn)	inactive: 0.4%
COc1ccc(C(=O)NCC2(N3CCCCC3)CCCCC2)cc1	inactive: 0%
COc1ccc(C(=O)NCC2(N3CCCCC3)CCCCC2)c(OC)c1OC	inactive: 2.65%
CC(C)(C)OC(=O)N1CCC(N(C(=O)c2ccccc2)c2ccc(F)cc2)CC1	inactive: 2.07%
CCC(c1nnnn1C1CCCC1)N1CCC(n2c(=O)[nH]c3ccccc32)CC1 (stereo not drawn)	inactive: 3.67%
O=C(NCC1(N2CCCCC2)CCCCC1)c1ccc(=O)[nH]c1	inactive: -0.08%
CCCCn1nnnc1C(CC)N1CCC(n2c(=O)[nH]c3ccccc32)CC1 (stereo not drawn)	inactive: 0.24%
O=C(NCC1(N2CCCCC2)CCCCC1)c1cccs1	inactive: 3.67%
CCCCn1nnnc1C(c1cccs1)N1CCC(n2c(=O)[nH]c3ccccc32)CC1 (stereo not drawn)	inactive: 3.67%
CSc1ccccc1C(=O)NCC1(N2CCCCC2)CCCCC1	inactive: -0.91%
Cc1cccc(NC2(C#N)CCN(Cc3ccccc3)CC2)c1	inactive: 0.93%
O=c1[nH]c2ccccc2n1C1CCN(C(c2ccccc2)c2nnnn2C2CCCCC2)CC1 (stereo not drawn)	inactive: -1.03%
CCOC(=O)N1CCC(Nc2cccc(C)c2)CC1	inactive: -1.48%
COc1cc(C(=O)NCC2(N(C)C)CCCCC2)ccc1OC(F)F	inactive: -1.27%
O=c1[nH]c2ccccc2n1C1CCN(C(c2cccc3ccccc23)c2nnnn2C2CCCC2)CC1 (stereo not drawn)	inactive: 3.58%
CC(C)(C)n1nnnc1C(c1ccccc1)N1CCC(n2c(=O)[nH]c3ccccc32)CC1 (stereo not drawn)	inactive: 0.7%
O=C1CCN(Cc2ccccc2)CC1	inactive: 5.81%
CCOc1ccc(C)cc1CN(CCCl)CCCl	inactive: 2.09%
CCCCOc1ccc(C(=O)NCC2(N3CCOCC3)CCCCC2)cc1	inactive: 2.52%
CCCCn1nnnc1C(c1cc2ccccc2o1)N1CCC(n2c(=O)[nH]c3ccccc32)CC1 (stereo not drawn)	inactive: 0.39%
O=P1(N(CCCl)CCCl)SCCCS1	inactive: 1.79%
O=C(NCC1(N2CCCCC2)CCCCC1)c1ccc(F)cc1	inactive: 3.62%
CCOC(=O)N1CCC(Nc2ccc(F)cc2)CC1	inactive: 0.38%
COc1ccc(NC2CCN(CCc3ccccc3)CC2)c(OC)c1	inactive: 0.31%

Reference: PubChem BioAssay AID651602 (The Scripps Research Institute Molecular Screening Center, 2012)
